From publication PMC5871717, “Transposase-DNA Complex Structures Reveal Mechanisms for Conjugative Transposition of Antibiotic Resistance” (Cell, 2018)
The exact form of at least one protein or probe is not confirmed. At least one verdict was read from the data and is not stated in words by the source.

Biological target: 384C (Enterococcus faecalis) (UniProt Q7BP35)
Assay: EMSA
Conditions: DNA presumed CI5, […] (50 mM HEPES pH 7.5, 250 mM NaCl, 5 mM DTT, 10% glycerol), recombinant protein, residues 82-384, protein details: 6xHis-SUMO removed by SenP2, label: 5'-32P in EMSA, none in crystals

Does “TGCGATAACCTAAAATTTTATAGCAAAATTATATGGGATTTTAG / CTAAAATCCCATATAATTTTGCTATAAAATTTTAGGTTATCGCT [CI5]” bind?
Result: binds
